# Reference: PubChem BioAssay AID504761 (Drosophila RNAi Screening Center, 2011)
# Screen: 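Insect host genes that dengue virus relies on to spread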 (primary screen)
# Cell system: D.Mel-2 cells from Drosophila
# Reagent: long dsRNA against Drosophila genes
# Conditions: infection with dengue virus type 2; dose and infection time not stated
# Measured: 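Cells stained for dengue envelope protein and imaged; percent of infected cells per well on duplicate plates, ranked by infection, with stained nuclei counted for cell number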
# Scale: infection score: higher = more virus-infected cells; cell count: higher = more cells in the well
# Call rule: 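Very low infection ranking in both replicate wells (chance probability at most 0.065), then a retest showing infection dropped 1.5-fold or more at p below 0.05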
# Calls: active = confirmed: knock-down lowers infection; inactive = not picked or not confirmed
# The screen tested about 22,000 reagents; shown is an unselected part of those with a known target gene and a result. Of all reagents, 116 (0.52%) were called active. 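Calls depend on retest data that are not deposited; infection was ranked per plate without normalising between plates; the unit of the infection score is not given.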 Raw values are not corrected between plates. Entries without a mark were called inactive. A plus sign joins genes that one reagent is predicted to hit. The record does not give: the amount of reagent, the time to read-out.
predicted target,amplicon,"infection score, replicate 1","infection score, replicate 2","cell count, replicate 1","cell count, replicate 2"
Kul,DRSC15404,8.29,4.81,1978,6005
Kul,DRSC25888,8.03,1.18,6138,6271
CG16926,DRSC06637,13,6.52,5306,2148
CG7271,DRSC22561,3.41,1.38,6572,6500
CG6432,DRSC16039,3.2,3.5,6290,6578
Taf11,DRSC03448,8.78,2.56,6461,6176
CG10738,DRSC09792,0.29 (active),0.34,6531,6755
CG10738,DRSC24408,2.04,1.94,6339,5969
CG18063,DRSC01968,2.54,0.84,6659,7016
Ssl,DRSC04657,4.82,2.78,6571,6799
Ssl,DRSC26276,13.5,8.44,3757,5637
CG13698,DRSC10047,2.08,19,6432,5925
CG11670,DRSC14342,5.15,15.2,5374,6827
unc80,DRSC15329,2.35,0.49,639,607
mRpL4,DRSC03562,19.6,16.2,6302,5414
Hip14,DRSC10570,4.18,6.7,6692,6361
CG9928,DRSC03274,5.73,6.04,6164,6654
CG31371,DRSC15079,7.69,9.68,2081,5423
CG13484,DRSC10026,0.82,0.33,6080,6044
CG13484,DRSC26663,1.47,6.45,5842,6452
CG10126,DRSC14191,10.4,27.2,2803,5515
CG5707,DRSC08573,6.46,21.5,6269,4844
CG5707,DRSC24854,1.5,3.82,6393,6149
Ugt305A1,DRSC08541,11.4,5.43,5722,5687
Ugt305A1,DRSC26426,1.78,2.36,4765,6182
FucTD,DRSC08634,2.47,2.14,6353,5945
CG30177,DRSC22680,2.09,3.27,6510,6574
CG8500,DRSC16434,3.84,2.35,6298,6385
CG8500,DRSC27083,5.45,5.72,6656,6464
mio,DRSC00692,5,14.5,6541,6096
mio,DRSC22056,3.04,9.08,7138,6067
Cyp304a1,DRSC16623,3.23,10.8,6288,6320
ari-1,DRSC20308,1.94,6.7,7051,6990
ari-1,DRSC21603,6.05,22.6,5698,3818
ari-1,DRSC27556,4.78,16.2,6864,6673
CG9588,DRSC16504,0.8,4.91,6253,6113
Ccdc56 + mtTFB1,DRSC28766,,,348,23
CG13036 (retired record),DRSC09916,1,1.9,6404,6418
Pex16,DRSC11750,7.89,14,1584,5996
Elp2,DRSC06095,8.69,4.59,5659,6516
CG16781,DRSC18117,1.67,3.75,6754,6689
CG16781,DRSC28112,16.1,22.3,5108,3292
Snx1,DRSC00531,6.99,31.2,6491,5979
gdl-ORF39 + gdl,DRSC11350,2.15,5.29,6081,6546
CG14712,DRSC14935,17.3,24.2,1533,2038
Fife,DRSC23483,19.1,16.1,4458,5674
CAHbeta,DRSC14449,6.01,8.14,6437,6425
CG11997,DRSC14464,3.34,6.48,6375,6632
CG11997,DRSC26460,4.05,9.74,6377,6399
shop,DRSC20030,1.84,5.21,6680,6954
shop,DRSC26764,4.52,5.36,6482,5878
CG12493,DRSC08279,6.76,3.14,6344,5986
CG12493,DRSC25535,7.92,3.6,6095,6140
CG13127,DRSC02223,1.57,3.27,6682,6853
CG13127,DRSC29726,6.56,7.78,6338,6378
CG14982,DRSC23022,3.81,1.38,6065,6825
Lcp65Aa,DRSC11209,3.22,18.5,6274,5634
Lcp65Aa,DRSC27546,2.59,17.9,6917,6902

Part of the list above, reformatted.
{"predicted target": "CG8500", "amplicon": "DRSC27083", "infection score, replicate 1": 5.45, "infection score, replicate 2": 5.72, "cell count, replicate 1": 6656, "cell count, replicate 2": 6464}
{"predicted target": "mio", "amplicon": "DRSC00692", "infection score, replicate 1": 5, "infection score, replicate 2": 14.5, "cell count, replicate 1": 6541, "cell count, replicate 2": 6096}
{"predicted target": "mio", "amplicon": "DRSC22056", "infection score, replicate 1": 3.04, "infection score, replicate 2": 9.08, "cell count, replicate 1": 7138, "cell count, replicate 2": 6067}
